Data published in patent US6117849A, “S-(+)-adenosylmethionine and 3'-azido-2', 3'-dideoxy-nucleoside complexes as potent inhibitors of HIV-replication” (Symbio Herborn Group GmbH & Co., priority 1996, dated 2000).
Where two headings read alike, the source gives them in different places.

Tests used:
[1] = system: T-lymphocyte cell cultures
Procedure: Viability of the T cells was determined by means of a tetrazolium salt (MTT) metabolic assay.--(see also: Schwartz, O., et al., AIDS Rcs. Hum. Retroviruses, 4 441-448, 1988).

bone marrow stem cells = conditions: vs AZT
[2] = biological target: T1, reverse transcriptase (RT) (HIV-1 M:B_HXB2R, UniProt P04585); type: biochemical; set-up: A2: RT in cord-blood lymphocyte cultures infected with HIV from an AIDS patient; conditions: for Ki: RT
Procedure: The second in-vitro test uses the enzymatic activity of RT, testing the kinetic and inhibitory action of the molecular complexes. The cloning of the RT in biologically active form made it possible to have large quantities of the RT enzyme available for these studies (RT from Sigma, lot # R 9376).
The steady state reaction conditions for RT are chosen that approximate physiological conditions are met: pH 7.45 (37° C.), ionic strength of 150 mM, routinely a buffer was employed consisting of 50 mM TRIS-HCl, 100 mM KCl, 5 mM MgCl2, the addition of 10 μg/mL bovine serum albumin were included. […] The aforementioned precautions designed to avoid potential reduction of SAM in the presence of DTT are taken into accounts to preclude any distortions of the kinetic behavior of the RT enzyme in the presence of the various substrates e.g. as our molecular compounds. […] The enzyme concentrations of RT was approx. 20 nM, T-P (template-primer) […] and 25 μM of [^3 H]-dNTP (assay conditions are modified fro those of Mayunder et al., J. biol. Chem.,263, 15657, 1988). […] In case both parameters are effected to the same extent, then the inhibition is uncompetitive. In order to facilitate the difference between SAM kinetics and those for the molecular complexes we studied first SAM kinetics and subsequently the kinetics in the presence of the molecular complexes. […] Similar experiments have been carries out with dGTP.
The enzyme was assayed with 50 nM primer sites on poly (rA): oligo (dT), and variable concentrations of [^3 H] dTP as substrates in a reaction mixture as described above at pH 7.5 (37° C.).

[3] = system: mitochondrial DNA replication; conditions: vs AZT
[4] = biological target: T1, reverse transcriptase (RT); type: biochemical; set-up: A2: RT in cord-blood lymphocyte cultures infected with HIV from an AIDS patient; conditions: no DTT

3'-azido-2',3'-dideoxyinosine [SAM/AZI]
therapeutic index ([1]; t-lymphocyte cultures): 5.000

3'-azido-2',3'-dideoxyuridine [SAM/AZU]
toxicity for bone marrow stem cells (bone marrow stem cells): less toxic than AZT | therapeutic index ([1]; t-lymphocyte cultures): 6.500 | Ki ([2]; no DTT): 0.21 ± 0.01 µM | toxicity/inhibition of mitochondrial DNA replication [3]: less toxic as well as inhibitory to mitochondrial DNA replication

(+)-SAM-3'-azido-2',3'-dideoxythymidine complex [SAM/AZT]
therapeutic index ([1]; in vitro, considering cytotoxicity): 7.000 | type of RT inhibition ([2]; double reciprocal plot / steady state kinetics): noncompetitive | kcat ([2]; no DTT): approx. 1.5 min^-1 | Ki ([2]; no DTT): 0.18 ± 0.01 µM | Km ([2]; no DTT, pH 7.45-7.5, 37° C.): 0.67 ± 0.02 µM | kcat ([2]; noncompetitive with respect to deoxyadenosine triphosphate): 1.5 min.^-1 | kcat ([2]; noncompetitive with respect to deoxyguanosine triphosphate): 2.5 min⁻¹ | kcat [4]: 0.025 s⁻¹
